Data published in US20140248273A1 (published 2014).
Where “and” joins values, the source holds several entries; their conditions need not be identical. Identical values can stand only once.

Target: TLR2 (CD282) on human neutrophils and monocytes (human, UniProt O60603 21-784)

B1: Staphylococcal superantigen-like 3 (SSL3) protein of S. aureus strain NCTC 8325, recombinant, His-tag removed (other)
chain: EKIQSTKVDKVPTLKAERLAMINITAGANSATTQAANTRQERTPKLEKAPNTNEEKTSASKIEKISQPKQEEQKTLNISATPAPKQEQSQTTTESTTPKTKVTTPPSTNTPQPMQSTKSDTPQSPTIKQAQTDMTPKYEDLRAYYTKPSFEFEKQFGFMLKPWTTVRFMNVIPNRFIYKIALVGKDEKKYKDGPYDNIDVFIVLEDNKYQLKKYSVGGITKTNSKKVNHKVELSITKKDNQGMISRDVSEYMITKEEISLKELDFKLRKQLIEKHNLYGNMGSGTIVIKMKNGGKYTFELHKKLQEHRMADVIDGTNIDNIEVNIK
- IC50: ~0.05 mg/L and ~0.02 mg/L
